pIC50: −log10 of the molar value.
Columns and labels:
Assay type in all cases: biochemical
[1] = biological target: recombinant PfCDPK1 T145M (Plasmodium falciparum, UniProt P62344, T145M); test: BKI library screening, in vitro kinase assay (KinaseGlo); conditions: read-out: PfCDPK1Met IC50; methionine gatekeeper mutant T145M; 10 µM ATP, 90 min at 30°C
recombinant PfCDPK1 WT = recombinant PfCDPK1 WT (Plasmodium falciparum, UniProt P62344); test: as above; conditions: read-out: PfCDPK1 WT IC50; 10 µM ATP, 90 min at 30°C; two independent experiments in triplicate
[2] = biological target: recombinant P. falciparum cGMP-dependent protein kinase (PfPKG) (Plasmodium falciparum, UniProt Q8I719); test: PfPKG in vitro kinase activity assay (luminescence); conditions: read-out: IC50 (SD) for PfPKG; 2 µM ATP, 20 µM cGMP, 2 h at 30°C
Experimental: Compound efficacy against recombinant P. falciparum cGMP-dependent protein kinase (PfPKG) was determined using a novel nonradioactive and high-throughput assay. This assay evaluates protein kinase activity by measuring changes in […] ATP concentration via luminescence after PfPKG enzyme phosphorylation of a peptide substrate, PKCtide ([…]) (SignalChem, Richmond, BC, Canada). The in vitro kinase assay was set up with 26 µM PKCtide, 30 nM PfPKG, and 20 µM cGMP in a buffered solution containing 20 mM β-glycerol phosphate, 20 mM MgCl2, 25 mM HEPES (pH 7.5) (KOH), 0.1% bovine serum albumin (BSA), and 2 mM DTT ([37]). The reaction was initiated with addition of 2 µM ATP. The reaction mixture was incubated at 30°C and 90-rpm agitation for 2 h. Reaction wells with no PfPKG, no peptide substrate, and no cGMP were included in each assay plate as internal negative controls.

Chains of the proteins cited; added tags and fusions are not shown. Lines headed by an entry give the natural chain unless they say otherwise; changes in a name come on top.
UniProt P62344, whole entry: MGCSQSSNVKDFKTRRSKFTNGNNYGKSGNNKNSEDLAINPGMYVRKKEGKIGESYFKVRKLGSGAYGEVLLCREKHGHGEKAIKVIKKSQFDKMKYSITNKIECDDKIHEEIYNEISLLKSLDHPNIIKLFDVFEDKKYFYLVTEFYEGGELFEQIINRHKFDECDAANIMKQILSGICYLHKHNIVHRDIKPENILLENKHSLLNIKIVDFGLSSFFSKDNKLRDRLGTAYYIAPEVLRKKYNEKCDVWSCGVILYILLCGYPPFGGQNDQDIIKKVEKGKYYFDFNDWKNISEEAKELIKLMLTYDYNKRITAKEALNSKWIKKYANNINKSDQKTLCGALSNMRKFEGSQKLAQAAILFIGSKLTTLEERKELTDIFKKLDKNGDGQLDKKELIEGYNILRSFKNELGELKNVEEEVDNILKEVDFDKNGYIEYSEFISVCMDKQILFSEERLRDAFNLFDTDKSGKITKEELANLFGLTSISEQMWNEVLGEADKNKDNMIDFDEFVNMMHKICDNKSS
UniProt P62344, whole entry T145M: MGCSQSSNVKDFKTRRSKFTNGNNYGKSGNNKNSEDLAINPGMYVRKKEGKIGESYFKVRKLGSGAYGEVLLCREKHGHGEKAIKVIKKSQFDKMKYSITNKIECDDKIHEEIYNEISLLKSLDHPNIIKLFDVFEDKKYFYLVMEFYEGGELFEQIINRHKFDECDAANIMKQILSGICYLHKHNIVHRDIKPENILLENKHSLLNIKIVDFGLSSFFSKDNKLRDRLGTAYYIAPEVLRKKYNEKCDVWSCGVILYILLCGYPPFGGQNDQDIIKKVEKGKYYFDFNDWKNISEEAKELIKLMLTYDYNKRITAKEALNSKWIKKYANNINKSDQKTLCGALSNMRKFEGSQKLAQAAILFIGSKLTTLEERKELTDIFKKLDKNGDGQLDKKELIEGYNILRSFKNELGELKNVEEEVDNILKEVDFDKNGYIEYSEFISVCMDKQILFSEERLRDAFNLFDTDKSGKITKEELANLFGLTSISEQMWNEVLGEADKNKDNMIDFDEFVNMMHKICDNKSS
UniProt Q8I719, whole entry: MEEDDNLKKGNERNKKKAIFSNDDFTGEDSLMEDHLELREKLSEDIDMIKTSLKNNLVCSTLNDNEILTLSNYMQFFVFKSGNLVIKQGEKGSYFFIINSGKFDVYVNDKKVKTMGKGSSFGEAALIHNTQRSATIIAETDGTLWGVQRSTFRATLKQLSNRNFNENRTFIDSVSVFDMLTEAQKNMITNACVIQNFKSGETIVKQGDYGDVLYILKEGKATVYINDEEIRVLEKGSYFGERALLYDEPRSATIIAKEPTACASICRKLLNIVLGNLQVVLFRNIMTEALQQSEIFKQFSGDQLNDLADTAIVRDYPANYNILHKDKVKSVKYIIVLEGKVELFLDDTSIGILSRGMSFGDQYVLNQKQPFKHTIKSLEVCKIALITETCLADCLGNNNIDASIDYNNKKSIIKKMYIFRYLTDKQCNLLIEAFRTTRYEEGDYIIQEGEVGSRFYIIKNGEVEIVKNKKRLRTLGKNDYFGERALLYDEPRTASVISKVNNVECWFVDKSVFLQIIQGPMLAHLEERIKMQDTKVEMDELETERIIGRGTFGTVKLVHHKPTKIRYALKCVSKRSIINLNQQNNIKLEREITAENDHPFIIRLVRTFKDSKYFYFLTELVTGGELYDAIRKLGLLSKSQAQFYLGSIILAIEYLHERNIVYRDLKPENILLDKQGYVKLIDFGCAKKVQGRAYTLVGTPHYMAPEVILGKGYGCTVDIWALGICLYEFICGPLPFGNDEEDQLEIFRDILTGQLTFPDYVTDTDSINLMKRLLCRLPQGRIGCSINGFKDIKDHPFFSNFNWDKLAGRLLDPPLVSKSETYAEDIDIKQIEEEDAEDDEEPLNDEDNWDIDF

SMILES	pIC50 [1]	pIC50 (recombinant PfCDPK1 WT)	pIC50 [2]
CCOc1ccc2cc(-c3nn(CC4CCNCC4)c4ncnc(N)c34)ccc2n1	< 5.70	6.33	5.86
CC(C)(C)n1nc(-c2ccc3ccccc3c2)c2c(N)ncnc21	< 5.70	6.47	
CCOc1ccc2cc(-c3nn(CC4CCNCC4)c4ncnc(N)c34)ccc2c1	< 5.70	6.83	6.43

— publication PMC5142624, “Reduced Activity of Mutant Calcium-Dependent Protein Kinase 1 Is Compensated in Plasmodium falciparum through the Action of Protein Kinase G” (mBio, 2016)
